Experimental data taken from the supplement of paper PMC9931576.
Human monoclonal antibodies against the spike receptor-binding domain (heavy:light variable regions). IC50 against pseudoviruses bearing the spike of naturally observed variants; lower = stronger; >10 µg/ml means not reached at the top dose. No active / inactive call. The stated detection limit is 0.0005 µg/ml; values near or below 0.001 µg/ml lie at the floor of the assay.

B1: BD56-1592 (protein)
chain 1: QVQLVESGGGVVQPGRSLRLSCVASGFTFKNYGMHWVRQAPGTGLEWVAVISYDGEDKYYADSVMGRFTISRDNSKNMLFLQMYRLRPEDTAVYYCAKAPYTHAYYYYFMDVWGKGATVTVSS
chain 2: NFMLTQPHSVSESPGKTVTIPCTGNSDSIASNHVQWYQQRPGSAPTTVIYEDNERPSGVPDRFSGSIDTSSKTASLTISGLKTEDEADYFCQSYDTNNHVVFGGGTKLTVL
B2: BD56-1590 (protein)
chain 1: EVQLVQSGAEVKKPGESLKISCKGSGYSFTTFWIGWVRQMPGKGLEWMGIIFPGDSDTRYSPSFQGQVTISADKSISTAYLQWRSLKASDTAMYYCARLSDYVGFDPWGQGTLVTVSS
chain 2: SSELTQDPAVSVALGQTIRITCQGDSLRSYYASWYQQKPGQAPVLVIYDKNKRPSGIPDRFSGSSSGNTASLTISGAQAEDEADYYCNSRDNDDNHYVFGTGTKVTVL
B3: COV2-2037 (protein)
chain 1: EVQLVESGGGLVQPGESLRLSCAASGITVSSNYMSWVRQAPGKGLEWVSVIYSGGSTFYADSVKGRFIISRHNSKNTLYLQMNSLRAEDTAVYYCARDLNEHGLDVWGQGTTVSVSS
chain 2: DIQMTQSPSSVSASVGDRVTITCRASQGISSWLAWYQQKPGKAPKLLIYAASSLQSGVPSRFSGSGSGTDFTLTISSLQPEDFATYYCQQTNSFPTFGQGTRLEIR
B4: BD56-1578 (protein)
chain 1: EVQLVQSGAEVKKPGESLKISCKGSGYSFISYWSGWVRQTPGKGLEWMGIIYPGDSDTKYSPSFQGQVIISADKSISTSYLQWSSLKASDTAMYYCVRRDGGSYSGYDDYWGQGTLVTVSS
chain 2: QSVLTQPPSASGTPGQRVTISCSGGSSNIGSNPVNWYQQLPGAAPKLLIYNNNQRPSGFPDRFSGSKSGTSASLAISGLQSEDEAEYYCAAWDDSLNGYVFATGTKVTVL
B5: BD56-1572 (protein)
chain 1: EVQLVQSGAEVKKPGESLKISCKGSGYSFSTYWIAWVRQMPGKGLEWMGIIYPYDSDTRYSPSFQGQVTISADKSISTAYLQWTSLKASDTAMYYCARQDSGWALDYWGQGTLVTVSS
chain 2: SSELTQDPAVSVALGQTVRITCQGDSLRSYYASWYQQKAGQAPVLVIYGKTNRPSGIPDRFSGSGSGNTASLTITGAQAEDEADYYCNSRDSSGNHWVFGGGTKLTVL
B6: BD56-1565 (protein)
chain 1: QVQLVQSGAEVKKPGASVKVYCKASRYRFNDHYVHWVRQAPGQGLEWMGIINPSAGSTTYERKFQGRVSMTTDTSTTTVFMELSSLRSEDTAVYFCARDSGFIPDRDAFDIWGQGTMVTVSS
chain 2: DIQMTQSPSTLSASVGDRVTITCRASQSISSRLAWYQQKPGKAPKLLIYKTSNLESGVPSRISGSGSGTEFTLTISSLQPDDFATFYCQQYDSFPYTFGQGTELEIK
B7: BD56-1570 (protein)
chain 1: QVQLQQWGAGLLKPSETLTLTCGVSGGSFSGYYWSWVRQPPGKGLEWIGEINQSGSTNYNPSLKSRVTLSVDTSKDQFSLKLTSVTAADTAVYYCARLPQANYYYSYYDLDVWGRGTTVTVSS
chain 2: DIVMTQSPDSLAVSLGERATINCKSSQSILYSSNNKNYLAWYQQRPGQPPKLLFYWASIRESGVPDRFSGSGSGTDFTLTISSLQAADVALYFCQQYYDSPWTFGQGTKVEIK
B8: BD56-1583 (protein)
chain 1: QLLLQESGPGLVKPSETLSLTCTVSGASINTGSYYWAWIRQPPGKGLEWIGSLYYTVKTFYNPSLKSRVTMSVDTSKNHFSLRLSSVTAADTALYYCARLVIRFTYYFDSWGQGTVVTVSS
chain 2: QSALTQPASVSGSPGQSITISCSGTSNDVGTYNLVSWYQHHPGKAPKLMIYEGNKRPSGVSDRFSGSKSGNTASLTISGLQAEDEADYFCCSFGDTNTPVVFGGGTKVTVL
B9: BD56-1568 (protein)
chain 1: QVQLQESGPGLVKPSQTLSLTCTVSGGSIISGTHYWSWIRQPAGMGLEWIGHIYTSGSTNYNPSLKSRVAFSVDTSKNQFSLKLSSVTASDTAVYYCAREVFRYFDWLYYFDYWGQGTLVTVSS
chain 2: SSELTQDPAVSVALGQTVRITCQGDSLRSYYATWYQQRPGQAPILVIYGQNNRPSGIPDRFSGSSSGNTASLTITGAQAEDEADYYCNSRDSSGHSYVFGTGTKVTVL
B10: BD56-1562 (protein)
chain 1: QVQLVESGGGVIQPGRSVRLSCAASGFTFRHYGMHWVRQSPGKGLEWVAVISYDGSHKYYADSVKGRFTISRDNSKSVLYLQLNSLGPEDTAVYYCAKKDGGPYCGGGDCYSGLIDYWGQGTLVTVSS
chain 2: QSVLTQPPSVSAAPGQKVTISCSGSSSNIGNNFVSWYQQLPGTAPELLIYDNNERPSGIPDRFSGSKSGTSATLAITGLETGDEADYYCGTWDSSLTGMVFGGGTKLTVL
B11: BD56-1569 (protein)
chain 1: QVHLVESGGGVVQPGRSLRLSCAASGFTFRHYGMHWVRQAPGKGLEWVAATLYDGSSNYYADSVKGRFIISRDNSKNTLYLQMNSLRVEDTAVYYCAKLGAPYCGGGNCYSGYLDYWGQGTLVTVSS
chain 2: DIQMTQSPSSLSASVGDRVTITCQASQDVSHYLNWYQHKPGKAPKLLIYDASNLETGVPSRFSGSASGTDFTFTISSLQPEDFATYYCQQYQNLPLTFGGGTKVEIK
B12: COV2-2780 (protein)
chain 1: QVQLQQWGAGLLKPSETLSRTCAVYGASFSNYYWSWIRQPPGKGLEWIGEINHSENTNYNPSLKSRVTISVDTSKNQFSLRLSSVTAADTAVYYCARLRYSSSGGHIFDYWGQGTLVTVSS
chain 2: DIQMTQSPSSLSASVGDRVTITCQASQDINNYLNWYQQKSGKAPKLLIYDASNLETGVPSRFSGSGSGTDFTFTINSLQPEDIATYYCQQYDNLPYTFGQGTKLEIK

Target: SARS-CoV-2 Omicron BA.1 spike pseudovirus
Test: pseudovirus neutralization IC50; higher = weaker neutralization
Experimental: (§1)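 Single-round VSV luciferase pseudovirus mixed with antibody dilutions for 1 h and put on Huh-7 cells for about a day; IC50 from the dose curve.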

Binder | pseudovirus neutralization IC50 [µg/mL]
B1 | > 10
B2 | 2.4
B3 | > 10
B4 | 1.31
B5 | 2.58
B6 | > 10
B7 | > 10
B8 | > 10
B9 | > 10
B10 | > 10
B11 | 1.54
B12 | > 10

Target: SARS-CoV-2 Omicron BA.2 spike pseudovirus
Test: as above
Experimental: as §1

Binder | pseudovirus neutralization IC50 [µg/mL]
B1 | > 10
B2 | 2.43
B3 | > 10
B4 | 1.16
B5 | 1.26
B6 | > 10
B7 | > 10
B8 | > 10
B9 | > 10
B10 | > 10
B11 | 3.11
B12 | > 10

Target: SARS-CoV-2 Omicron BA.2.75 spike pseudovirus
Test: as above
Experimental: as §1

Binder | pseudovirus neutralization IC50 [µg/mL]
B1 | > 10
B2 | 1.37
B3 | > 10
B4 | 0.481
B5 | 0.497
B6 | > 10
B7 | > 10
B8 | > 10
B9 | > 10
B10 | > 10
B11 | 4.24
B12 | > 10

Target: SARS-CoV-2 Omicron BA.5 spike pseudovirus
Test: as above
Experimental: as §1

Binder | pseudovirus neutralization IC50 [µg/mL]
B1 | > 10
B2 | 1.31
B3 | > 10
B4 | 0.591
B5 | 0.614
B6 | > 10
B7 | > 10
B8 | > 10
B9 | > 10
B10 | > 10
B11 | 2.04
B12 | > 10

Target: SARS-CoV-2 Omicron BQ.1.1 spike pseudovirus
Test: as above
Experimental: as §1

Binder | pseudovirus neutralization IC50 [µg/mL]
B1 | > 10
B2 | 2.35
B3 | > 10
B4 | 0.878
B5 | 1.06
B6 | > 10
B7 | > 10
B8 | > 10
B9 | > 10
B10 | > 10
B11 | 2.33
B12 | > 10

Target: SARS-CoV-2 Omicron XBB spike pseudovirus
Test: as above
Experimental: as §1

Binder | pseudovirus neutralization IC50 [µg/mL]
B1 | > 10
B2 | 3.48
B3 | > 10
B4 | 0.889
B5 | 2.08
B6 | > 10
B7 | > 10
B8 | > 10
B9 | > 10
B10 | > 10
B11 | 2.53
B12 | > 10

Target: SARS-CoV-2 early D614G spike pseudovirus
Test: as above
Experimental: as §1

Binder | pseudovirus neutralization IC50 [µg/mL]
B1 | 3.84
B2 | 2.04
B3 | 0.0167
B4 | 1.94
B5 | 2.2
B6 | > 10
B7 | > 10
B8 | > 10
B9 | > 10
B10 | 6.66
B11 | 2.21
B12 | 1.53
